The series concerns wastewater microorganisms. Description: CO2 Headspace Test (ISO 14593), biodegradation.

Where “and” joins values, the source holds several entries; their conditions need not be identical. Equal entries are not always repeated.

Take `CCCCCCCCOS(=O)(=O)[O-].CCOCCOC(=O)[C@@H](OC(=O)Cn1cc[n+](C)c1)c1ccccc1` [KG305, S-3-methyl-1-[1-(ethoxyethoxycarbonyl)-1-phenylmethoxycarbonylmethyl]imidazolium octyl sulphate]: the “% biodegradation” value is, setting by setting: (day 0) 0%; (day 6) 73%; (day 14) 77%; (day 21) 85%; (day 28) 83%.
Turning to `CCCCCCCCCCCCOS(=O)(=O)[O-].[Na+]` [SDS, Sodium n-dodecyl sulfate, reference compound], the “% biodegradation” value by setting is: (day 0) 0%; (day 6, sulfate) 81% and 84%; (day 14, sulfate) 88% and 87%; (day 21) 90%; (day 28, sulfate) 92% and 88%.
As to `CCCCCCCCOS(=O)(=O)[O-].CCOCCOC(=O)C(C)OC(=O)Cn1cc[n+](C)c1` (centres unmarked) [KG172, RS-3-methyl-1-[1-(ethoxyethoxycarbonyl)-1-methylmethoxycarbonylmethyl]imidazolium octyl sulphate], the “% biodegradation” value is, setting by setting: (day 0) 0%; (day 6) 55%; (day 14) 64%; (day 21) 69%; (day 28) 69%.
As to `CCCCCCCCOS(=O)(=O)[O-].CCCCOC(=O)C(OC(=O)Cn1cc[n+](C)c1)c1ccccc1` (centres unmarked) [KG 308, RS-3-methy1-1-[1-(butoxycarbonyl)-1-phenylmethoxycarbonylmethyl]imidazolium octyl sulphate], the “% biodegradation” value worked out at 0% (day 0); 62% (day 6); 71% (day 14); 78% (day 21); 78% (day 28).
Take `CCCCCCCCOS(=O)(=O)[O-].CCCCCOC(=O)C(OC(=O)Cn1cc[n+](C)c1)c1ccccc1` (centres unmarked) [KG304, RS-3-methyl-1-[1-(pentoxycarbonyl)-1-phenylmethoxycarbonylmethyl]imidazolium octyl sulphate]: the “% biodegradation” value (day 0) is given as 0%; the “% biodegradation” value (day 6) amounted to 64%; the “% biodegradation” value (day 14) came to 78%; the “% biodegradation” value (day 21) is recorded as 79%; the “% biodegradation” value (day 28) is given as 82%.
Consider `CCCCCCCCOS(=O)(=O)[O-].CCCOC(=O)C(C)OC(=O)Cn1cc[n+](C)c1` (centres unmarked) [KG 166, RS-3-methyl-1-[1-(propoxycarbonyl)-1-methylmethoxycarbonylmethyl]imidazolium octyl sulphate], for which the “% biodegradation” value was 0% (day 0); 50% (day 6); 63% (day 14); 66% (day 21); 67% (day 28).
On the same counts, the results for “R-3-methyl-1-[1-(pentoxycarbonyl)-1-methylmethoxycarbonylmethyl]imidazolium octyl sulphate [KG171]” are 0%, 54%, 67%, 70% and 71%.
In the case of “R-3-methyl-1-[1-(ethoxyethoxycarbonyl)-1-methylmethoxycarbonylmethyl]imidazolium octyl sulphate [KG173]”, the “% biodegradation” value is, setting by setting: (day 0) 0%; (day 6) 59%; (day 14) 69%; (day 21) 74%; (day 28) 74%.
For the compound “R-3-methyl-1-[1-(ethoxyethoxycarbonyl)-1-phenylmethoxycarbonylmethyl]imidazolium octyl sulphate [KG301]”, the “% biodegradation” value runs as follows: (day 0) 0%; (day 6) 63%; (day 14) 73%; (day 21) 78%; (day 28) 80%.
As to `CCCCCCCCOS(=O)(=O)[O-].CCCCCOC(=O)[C@@H](OC(=O)Cn1cc[n+](C)c1)c1ccccc1` [KG302, S-3-methyl-1-[1-(pentoxycarbonyl)-1-phenylmethoxycarbonylmethyl]imidazolium octyl sulphate], the “% biodegradation” value is, setting by setting: (day 0) 0%; (day 6) 66%; (day 14) 76%; (day 21) 81%; (day 28) 79%.
“R-3-methyl-1-[1-(pentoxycarbonyl)-1-phenylmethoxycarbonylmethyl]imidazolium octyl sulphate [KG303]”: the “% biodegradation” value by setting is: (day 0) 0%; (day 6) 62%; (day 14) 72%; (day 21) 77%; (day 28) 79%.
Regarding `CCCCCCCCOS(=O)(=O)[O-].CCCCCOC(=O)C(C)OC(=O)Cn1cc[n+](C)c1` (centres unmarked) [KG 170, RS-3-methyl-1-[1-(pentoxycarbonyl)-1-methylmethoxycarbonylmethyl]imidazolium octyl sulphate], the “% biodegradation” value amounted to 0% (day 0); 52% (day 6); 65% (day 14); 72% (day 21); 72% (day 28).
As for “R-3-methyl-1-[1-(methoxycarbonyl)-1-methylmethoxycarbonylmethyl]imidazolium octyl sulphate [KG 163]”, the “% biodegradation” value (day 0) amounted to 0%; the “% biodegradation” value (day 6) was found to be 49%; the “% biodegradation” value (day 14) turned out to be 60%; the “% biodegradation” value (day 21) stood at 63%; the “% biodegradation” value (day 28) is recorded as 67%.
As for `CCCCCCCCOS(=O)(=O)[O-].COC(=O)C(C)OC(=O)Cn1cc[n+](C)c1` (centres unmarked) [KG 162, RS-3-methyl-1-[1-(methoxycarbonyl)-1-methylmethoxycarbonylmethyl]imidazolium octyl sulphate], the “% biodegradation” value is, setting by setting: (day 0) 0%; (day 6) 46%; (day 14) 57%; (day 21) 61%; (day 28) 64%.
On the same counts, the results for “R-3-methyl-1-[1-(propoxycarbonyl)-1-methylmethoxycarbonylmethyl]imidazolium octyl sulphate [KG 167]” are 0%, 51%, 62%, 69% and 69%.
In the case of `CCCCCCCCOS(=O)(=O)[O-].CCCCOC(=O)[C@@H](OC(=O)Cn1cc[n+](C)c1)c1ccccc1` [KG 306, S-3-methyl-1-[1-(butoxycarbonyl)-1-phenylmethoxycarbonylmethyl]imidazolium octyl sulphate], the “% biodegradation” value is, setting by setting: (day 0) 0%; (day 6) 66%; (day 14) 75%; (day 21) 83%; (day 28) 82%.

Values taken from patent US8785655B2, “Ionic liquid solvents” (Dublin City University, priority 2009, dated 2014).
